Measured values from several laboratories, pooled; numbers as filed in NIAID ChemDB.

Shared fields: tests in culture; agent: Mycobacterium smegmatis

ECn is the concentration giving n% inhibition of infection, replication or growth. Two numbers with a dash give a range or band. Blank or dashed fields: not listed here. A number after MIC or MFC names an inhibition level or a share of isolates. Lines come from different laboratories, so protocols vary.

| smiles | strain | read by | endpoint | result |
|---|---|---|---|---|
| CC(=O)N(CCN(C(C)=O)C(C)C)C(C)C | ATCC 607 | - | EC50 | >250 µg/mL |
| NC1CCN(CCCCn2ccc(Nc3ccc(C4(O)CCNCC4)cn3)nc2=O)CC1 | - | turbidity | MIC | <8 µg/mL |
| CC(C)NCCNc1ccccc1 | ATCC 607 | - | EC50 | >1000 µg/mL |
| CCc1cc(C(N)=S)ccn1 | MC^2 846 | - | MIC | >80 µg/mL |
| COc1c(N2CC[C@H](N)C2)c(F)cc2c(=O)n(N)c(=O)n(C3CC3)c12 | A91V mutant | - | MIC99 | 25 µg/mL |
| CC(C)N[C@@H]1CCCC[C@H]1NC(C)C | ATCC 607 | - | EC50 | >250 µg/mL |
| Cc1c(N2CC[C@@H](CN)C2)c(F)cc2c(=O)n(N)c(=O)n(C3CC3)c12 | G89C mutant | - | MIC99 | 0.156 µg/mL |
| CCCCNCCNCCCC | ATCC 607 | - | EC50 | >250 µg/mL |
| COc1c(N2CC[C@@H](CN)C2)c(F)cc2c(=O)c(C(=O)O)cn(C3CC3)c12 | D95Y mutant | - | MIC99 | 0.125 µg/mL |
| C[C@](N)(CO)C(=O)NCc1ccc(Nc2ccn(CCCCN3CCC(N)CC3)c(=O)n2)nc1 | - | turbidity | MIC | 8–32 µg/mL |
| O=C(O)c1cn(C2CC2)c2cc(N3C[C@@H]4CCCN[C@@H]4C3)c(F)cc2c1=O | WT | - | MIC99 | 0.031 µg/mL |
| CNCC1(COCc2ccc(Nc3ccn(CCCCN4CCC(N)CC4)c(=O)n3)nc2)CC1 | - | turbidity | MIC | 8–32 µg/mL |
| CCCCCCCCCCCC(CCCCCCCCCCC)OC(=O)NC(CCC(=O)O)(CCC(=O)O)CCC(=O)O | mc155 | - | MIC | 72 µg/mL |
| NC1CCN(CCCCn2ccc(Nc3ccc(CN4CCC(N)CC4)cn3)nc2=O)CC1 | - | turbidity | MIC | <8 µg/mL |
| CCC1CN(c2c(F)cc3c(=O)n(N)c(=O)n(C4CC4)c3c2OC)CCN1 | G89C mutant | - | MIC99 | 10 µg/mL |
| CCCCCCCCCCCCCCCCCCCC(=O)NC(CCC(=O)O)(CCC(=O)O)CCC(=O)O | mc155 | - | MIC | 3 µg/mL |
| COc1c(N2CC[C@@H](CN)C2)c(F)cc2c(=O)[nH]c(=O)n(C3CC3)c12 | WT | - | MIC99 | 25 µg/mL |
| CC[C@H]1OC(=O)[C@H](C)[C@@H](O[C@H]2C[C@@](C)(OC)[C@@H](O)[C@H](C)O2)[C@H](C)[C@@H](O[C@@H]2O[C@H](C)C[C@H](N(C)C)[C@H]2O)[C@](C)(OC)C[C@@H](C)C(=O)[C@H](C)[C@@H](O)[C@]1(C)O | mc155 | - | MIC | 12.5 µg/mL |
| COc1c(N2CC[C@H](N)C2)c(F)cc2c(=O)[nH]c(=O)n(C3CC3)c12 | G89C mutant | - | MIC99 | 200 µg/mL |
| CCCCCCCCCCCCCCCC(=O)NC(CCC(=O)O)(CCC(=O)O)CCC(=O)O | mc155 | - | MIC | 36 µg/mL |
| NCCCOCc1ccc(Nc2ccn(CCCCN3CCC(N)CC3)c(=O)n2)nc1 | - | turbidity | MIC | 8–32 µg/mL |

2 of the rows above, restated:

C[C@](N)(CO)C(=O)NCc1ccc(Nc2ccn(CCCCN3CCC(N)CC3)c(=O)n2)nc1 ; read by: turbidity ; endpoint: MIC ; result: 8–32 µg/mL
CCCCCCCCCCCC(CCCCCCCCCCC)OC(=O)NC(CCC(=O)O)(CCC(=O)O)CCC(=O)O ; strain: mc155 ; endpoint: MIC ; result: 72 µg/mL